The structures appear in SMILES notation. The list shows a part of the results, in another mix than the full data. Activity calls are given as the source filed them. The call rests on the fitted dose curve; in most records, active means well fitted inhibition curve with a large enough effect in the main read-out, with a control signal flat (not every such curve was filed as active); inconclusive means small, poorly fitted or top-dose-only effect, or effect the other way, or a change in a side signal; inactive means no such curve, though single readings can be large or run the other way.

Chains of the proteins cited; added tags and fusions are not shown. Lines headed by an entry give the natural chain unless they say otherwise; changes in a name come on top.
UniProt Q99816: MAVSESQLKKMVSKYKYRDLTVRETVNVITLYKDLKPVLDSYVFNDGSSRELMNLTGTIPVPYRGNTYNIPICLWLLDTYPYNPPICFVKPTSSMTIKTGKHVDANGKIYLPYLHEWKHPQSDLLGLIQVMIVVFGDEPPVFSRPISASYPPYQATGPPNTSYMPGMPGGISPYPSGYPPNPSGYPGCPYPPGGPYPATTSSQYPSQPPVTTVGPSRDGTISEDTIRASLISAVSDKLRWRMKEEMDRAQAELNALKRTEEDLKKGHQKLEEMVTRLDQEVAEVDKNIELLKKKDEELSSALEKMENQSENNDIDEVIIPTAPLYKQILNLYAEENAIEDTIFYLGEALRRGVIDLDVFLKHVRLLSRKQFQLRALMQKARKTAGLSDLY

For the assay, the target named is Tumor susceptibility gene 101 protein (Homo sapiens) (UniProt Q99816). The assay can be described thus: qHTS Assay for Iinhibitors of HIV-1 Budding by Blocking the Interaction of PTAP/TSG101. Further: % of control where 0% means no effect. To be noted: Fluorescence polarization, FITC-PTAP peptide / Tsg101 binding; at 115 µM (top of the series). The text has this:
NIH Molecular Libraries Probe Production Network [MLPCN] NIH Chemical Genomics Center [NCGC] MLPCN Grant: 1 R03 MH087464-01A1 PI Name: Dr. Eric Freed, NCI NCGC Assay Overview: Stages of the HIV-1 replication cycle, specifically virus assembly and release, provide underexploited targets for the development of novel antiviral inhibitors. The late stages of HIV-1 replication are mediated by the Gag precursor protein, Pr55Gag. Expression of Pr55Gag is both necessary and sufficient for the production of virus-like particles from Gag-expressing cells. The Gag protein hijacks key host proteins involved in endocytic machinery of the host cell to promote endosomal processing and viral budding. The budding process requires a direct interaction between a […] (PTAP) motif in the p6 domain of Gag and the cellular endosomal sorting protein known as Tsg101. In this way, the Gag PTAP motif promotes the host cells to recruit viral particles to the plasma membrane where the new viral particles are released, effectively turning the host cells into viral factories. A fluorescence anisotropy assay has been developed to quantitatively measure the PTAP-Tsg101 interaction which can be used to screen for inhibitors of this interaction.
NCGC Assay Protocol Summary: Two uL of the Tsg101 binding domain in buffer (10 mM HEPES pH 7.5; 0.15 M NaCl, 0.01% Tween 20; 3 mM EDTA;0.1 mM TCEP) was dispensed into Greiner black MB 1536-well plates (final concentration 10 uM). Then, 23 nL of compounds or DMSO were delivered to each well using a pin tool. Finally, 2 uL of a FITC-labeled peptide containing the PTAP motif (1) in the same buffer was dispensed (50 nM final concentration) and the binding was allowed to proceed for 20 min. at r.t. Fluorescent polarization was determined using FITC excitation and polarized emission filters on a Perkin Elmer Viewlux. Keywords: Tsg101, PTAP, Gag, HIV, fluorescent polarization, MLSMR, MLPCN, NIH Roadmap, qHTS, NCGC
As for `Cc1ccc(NP(=O)(Oc2cccc(C)c2)Oc2cccc(C)c2)nc1`, the activity change, negative = inhibition is inactive: -0.146%. As for `c1ccc(-c2nn[nH]n2)c(-c2nn[nH]n2)c1`, the figure is inactive: -0.629%. In the case of `CN(C(=O)Cc1ccc(Cl)c(Cl)c1)[C@H]1CC[C@@]2(CCCO2)C[C@@H]1N1CCCC1`, the activity change, negative = inhibition is inactive: -0.96%. As for `O=[N+]([O-])c1ccc2c(c1)nnn2O`, the figure is inactive: -8.04%. In the case of `CN(C)C(=O)c1cc([N+](=O)[O-])cc2c1-c1c(cc([N+](=O)[O-])cc1[N+](=O)[O-])C2=O`, the activity change, negative = inhibition was inactive: -2.72%. As for `CN(C(=O)Cc1ccccc1)[C@@H]1CC[C@]2(CCCO2)C[C@H]1N1CCCC1`, the figure is inactive: -0.315%; as for `CCOP1(=S)c2c(C)nn(CCC#N)c2N=C(c2ccc(F)cc2)N1C` (stereo not given), inactive: -8.2%; as for `N#CCCN(C(=O)COC(=O)C(O)(c1ccccc1)c1ccccc1)c1ccc(F)cc1`, inactive: -2.1%. Regarding `NC(=O)Nc1ccc([As](=O)(O)O)cc1`, the activity change, negative = inhibition is inactive: 0.953%.

In the case of `Nc1ccccc1[As](=O)(O)c1ccccc1`, the activity change, negative = inhibition was inactive: -4.14%. As for `O=C(O)COc1ccc([As](=O)(O)O)cc1[N+](=O)[O-]`, the figure is inactive: -2.13%. Under `CS(=O)(=O)c1cc([N+](=O)[O-])c2no[n+]([O-])c2c1` stands inactive: -8.68%; under `O=P(Nc1nccs1)(Oc1ccccc1)Oc1ccccc1`, inactive: -6.34%; under `O=P(Nc1nccs1)(c1ccccc1)c1nc2ccccc2s1` (stereo not given), inactive: -1.2%.

Regarding `CCOP1(=S)c2c(C)nn(CCC#N)c2N=C(c2ccccc2F)N1C` (stereo not given), the activity change, negative = inhibition is inactive: -11.6%. Under `CCOP(=O)(Nc1cccc2ccccc12)OCC` stands inactive: -0.351%; under `COc1cc(C2NCCC3(OCCO3)C2(C)C)cc(OC)c1OC` (stereo not given), inactive: -0.887%; under `CCCOP(=S)(Nc1nc(N)cc(=O)[nH]1)OCCC`, inactive: -0.876%. On to `Cc1ccc(NCCc2c([N+](=O)[O-])cc([N+](=O)[O-])cc2[N+](=O)[O-])cc1`, for which the activity change, negative = inhibition was inactive: -3.86%. Turning to `Nc1cccc2c([As](=O)(O)O)cccc12`, the activity change, negative = inhibition is inactive: -11.6%. For the molecule `Cc1cccc(OCC(=O)OC2CN3CCC2CC3)c1` (stereo not given), the activity change, negative = inhibition is inactive: -0.579%. Under `O=[As](O)(c1cccc(O)c1)c1cccc(O)c1` stands inactive: 1.27%; under `CS(=O)(=O)c1ccc(Cl)c(NC(=O)COC(=O)C(O)(c2ccccc2)c2ccccc2)c1`, inactive: -4.29%. In the case of `O=[As](O)(O)c1cccnc1`, the activity change, negative = inhibition was inactive: -1.06%. Under `COc1cc(C(=O)NCC2(N3CCOCC3)CCCCC2)cc(Cl)c1OC(C)C` stands inactive: -0.197%.

In the case of `O=C(OC1CN2CCC1CC2)c1ccc(Cl)cc1` (stereo not given), the activity change, negative = inhibition is inactive: -0.2%.

In the case of `CC1(CBr)Cn2c(nc3ccccc3c2=O)S1` (stereo not given), the activity change, negative = inhibition was inactive: -7.52%. For `CC(C)/C=N\N=C(\N)N[N+](=O)[O-]`, the activity change, negative = inhibition was inactive: 0.378%. As for `CN(C(=O)Cc1ccc(Cl)c(Cl)c1)[C@@H]1CCCC[C@H]1N1CCCC1`, the figure is inactive: -6.53%; as for `COc1ccccc1CNC(=O)COC(=O)C(O)(c1ccccc1)c1ccccc1`, inactive: -2.54%; as for `CC(C)(C)C(=O)NC(Sc1ncccn1)C(Cl)(Cl)Cl` (stereo not given), inactive: 1.54%.

As to `Clc1n[nH]nc1-c1nn[nH][15n]1`, the activity change, negative = inhibition is inactive: -10.8%. In the case of `CCOP(=O)(Nc1ccc(C)cn1)OCC`, the activity change, negative = inhibition is inactive: -0.492%. As for `CN(CCCl)Cc1cc(Cl)c(NC2=NCCN2)c(Cl)c1`, the figure is inactive: -6.39%; as for `CCOP(=O)(NC(=NC(C)c1ccccc1)NC(C)c1ccccc1)OCC` (stereo not given), inactive: -6.93%. As for `O=P1(Nc2ccccn2)COc2ccccc2OC1`, the figure is inactive: -4.91%; as for `CCC1=CC2Cc3nc4ccc(Cl)cc4c(N)c3C(C1)C2` (stereo not given), inactive: -3.58%.

As to `Cc1ccc(OCC(=O)OC2CN3CCC2CC3)cc1` (stereo not given), the activity change, negative = inhibition is inactive: -4.29%.

Turning to `O=[As](O)(c1cccs1)c1cccs1`, the activity change, negative = inhibition is inactive: -0.824%. Regarding `O=P1(Nc2ccc(Br)cn2)COc2ccccc2OC1`, the activity change, negative = inhibition is inactive: -7.94%. Turning to `NS(=O)(=O)c1cccc(NC(=O)COC(=O)C(O)(c2ccccc2)c2ccccc2)c1`, the activity change, negative = inhibition was inactive: -0.576%. As for `Nc1cccc([As](=O)(O)c2ccccc2)c1`, the figure is inactive: -4.07%; as for `O=P1(Nc2ncccn2)COc2ccccc2OC1`, inactive: 0.106%; as for `CCCC1OP(=O)(Nc2ccccc2)OCC1CC` (stereo not given), inactive: -0.345%. With `O=C(/C=C/c1ccccc1)OC1CN2CCC1CC2` (stereo not given), the activity change, negative = inhibition is inactive: -0.293%. Turning to `CN(C)C1(CNC(=O)c2ccc(S(C)(=O)=O)cc2)CCCCC1`, the activity change, negative = inhibition was inactive: -2.3%.

Take `CC1CCC(C(C)C)C(OP(=O)(Nc2ccccn2)c2ccccc2)C1` (stereo not given): the activity change, negative = inhibition was inactive: -1.92%.

On to `Cc1ccc(C(=O)OC2CN3CCC2CC3)cc1` (stereo not given), for which the activity change, negative = inhibition is inactive: 0.452%.

With `Cc1nn(-c2ccccc2)c2c1P(=O)(N1CCOCC1)N(C)C(c1ccccc1)=N2` (stereo not given), the activity change, negative = inhibition was inactive: -12.1%.

As to `O=[N+]([O-])c1ccc(Nc2ccc(Oc3ccc([N+](=O)[O-])cc3[N+](=O)[O-])cc2)c([N+](=O)[O-])c1`, the activity change, negative = inhibition is inactive: -9.47%.

Source of the values: PubChem BioAssay AID493005 (National Center for Advancing Translational Sciences (NCATS), 2010).
